Results of unrelated studies side by side (data: NIAID ChemDB).

Shared fields: whole-cell or culture tests

An empty or dashed field is not shown. Neighbouring rows are from separate reports. A number after MIC or MFC names an inhibition level or a share of isolates. a–b is a range or a potency band.

CCOC(=O)C[C@@H](C1O[C@@H]2OC(C)(C)O[C@@H]2[C@H]1OC)N(C(=O)Nc1ccc(Cl)cc1)C1CC1 ; species: Mycobacterium aurum ; endpoint: MIC ; result: >25 µg/mL
CCCCCCCCO/N=C1\[C@H](C)CC(C)(O)[C@H](O[C@@H]2O[C@H](C)C[C@H](N(C)C)[C@H]2O)[C@@H](C)[C@H](OC2C[C@@](C)(OC)[C@@H](O)[C@H](C)O2)[C@@H](C)C(=O)O[C@H](CC)[C@@](C)(O)[C@H](O)[C@H]1C ; species: Mycobacterium avium complex ; strain: 20092 (clarithromycin-resistant) ; endpoint: MIC ; result: 25 µg/mL
CCCCCCCc1ccc(NC(=O)NNC(=O)c2ccncc2)cc1 ; species: Mycobacterium kansasii ; strain: My 235/80 ; read by: broth dilution ; conditions: 21 d ; endpoint: MIC100 ; result: 125 µM
NCC[C@H](O)C(=O)N[C@@H]1C[C@H](N)[C@@H](O[C@H]2O[C@H](CN)[C@@H](O)[C@H](O)[C@H]2O)[C@H](O)[C@H]1O[C@H]1O[C@H](CO)[C@@H](O)[C@H](N)[C@H]1O ; species: Mycobacterium abscessus ; read by: broth dilution ; endpoint: MIC50 ; result: 16 µg/mL
CO[C@@]1(NC(=O)CCCC(N)C(=O)O)C(=O)N2C(C(=O)O)=C(COC(C)=O)CSC21 ; species: Mycobacterium fortuitum ; strain: 1059 ; endpoint: MIC ; result: >100 µg/mL
Fc1cc(Nc2nnc(-c3ccncc3)o2)ccc1Br ; species: Mycobacterium avium ; strain: MY330/88 ; read by: broth dilution ; conditions: 21 d ; endpoint: MIC100 ; result: >125 µM
CO[C@@H]1C2OC(C)(C)OC2OC1[C@@H]1CC(=O)N(Cc2ccccc2)C(=O)N1C1CC1 ; species: Mycobacterium aurum ; endpoint: MIC ; result: >25 µg/mL
CCCCCCCCCCCCC(=O)O[C@H]1[C@H](C)OC(O[C@H]2[C@H](C)[C@@H](O[C@@H]3O[C@H](C)C[C@H](N(C)C)[C@H]3O)C(C)(O)C[C@@H](C)/C(=N\OCCCOc3ccccc3)[C@H](C)[C@@H](O)[C@](C)(O)[C@@H](CC)OC(=O)[C@@H]2C)C[C@@]1(C)OC ; species: Mycobacterium avium intracellulare ; strain: 20066 (clarithromycin-susceptible) ; endpoint: MIC ; result: >50 µg/mL
CO[C@@]1(NC(=O)C(C(=O)O)c2ccc(O)cc2)C(=O)N2C(C(=O)O)=C(CSc3nnnn3C)CO[C@@H]21 ; species: Mycobacterium fortuitum ; strain: 1045 ; endpoint: MIC ; result: >100 µg/mL
O=C(NNC(=O)c1ccncc1)Nc1ccc(F)c(Cl)c1 ; species: Mycobacterium kansasii ; strain: My 235/80 ; read by: broth dilution ; conditions: 14 d ; endpoint: MIC100 ; result: >125 µM
CO[C@@]1(NC(=O)Cc2ccccc2)C(=O)N2C(C(=O)O)=C(COC(C)=O)CSC21 ; species: Mycobacterium fortuitum ; strain: 4-May ; endpoint: MIC ; result: 50 µg/mL
CCOC(=O)C[C@@H](C1O[C@@H]2OC(C)(C)O[C@@H]2[C@H]1Oc1ccccc1)N(C(=O)NCc1ccccc1)C1CC1 ; species: Mycobacterium aurum ; endpoint: MIC ; result: >25 µg/mL
O=C(NNC(=O)c1ccncc1)Nc1ccc(Br)cc1Br ; species: Mycobacterium kansasii ; strain: My 235/80 ; read by: broth dilution ; conditions: 7 d ; endpoint: MIC100 ; result: >125 µM
CO[C@H]1/C=C/O[C@@]2(C)Oc3c(C)c(O)c4c(=O)c(c5oc6cc(N7CCN(CC(C)C)CC7)cc(=O)c6nc5c4c3=C2O)NC(=O)/C(C)=C\C=C\[C@H](C)[C@H](O)[C@@H](C)[C@@H](O)[C@@H](C)[C@H](OC(C)=O)[C@@H]1C ; species: Mycobacterium ulcerans ; strain: Isolate 5155 ; endpoint: MIC ; result: 0.025 µg/mL
O=C(NCc1ccc(N2CCCC2=O)cc1)c1c(Cl)nc2ccccn12 ; species: Mycobacterium ulcerans ; read by: fluorescence ; endpoint: MIC50 ; result: >10 µg/mL
CCCCCCCCCCCCCCCCO/N=C1\[C@H](C)CC(C)(O)[C@H](O[C@@H]2O[C@H](C)C[C@H](N(C)C)[C@H]2O)[C@@H](C)[C@H](OC2C[C@@](C)(OC)[C@@H](O)[C@H](C)O2)[C@@H](C)C(=O)O[C@H](CC)[C@@](C)(O)[C@H](O)[C@H]1C ; species: Mycobacterium avium complex ; strain: 20092 (clarithromycin-resistant) ; endpoint: MIC ; result: >50 µg/mL
CO[C@H]1/C=C/O[C@@]2(C)Oc3c(C)c(O)c4c(O)c(c(/C=N/N5CCN(C6CCCC6)CC5)c(O)c4c3C2=O)NC(=O)/C(C)=C\C=C\[C@H](C)[C@H](O)[C@@H](C)[C@@H](O)[C@@H](C)[C@H](OC(C)=O)[C@@H]1C ; species: Mycobacterium avium intracellulare ; strain: 420 ; endpoint: MIC ; result: 1 µg/mL
COc1ccc(Nc2nnc(-c3ccncc3)o2)cc1 ; species: Mycobacterium kansasii ; strain: My 235/80 ; read by: broth dilution ; conditions: 21 d ; endpoint: MIC100 ; result: >125 µM
CC(C)N=C(N)/N=C(\N)NOCCCOc1cc(Cl)c(Cl)cc1Cl ; species: Mycobacterium avium complex ; strain: 517 ; endpoint: MIC ; result: 32 µg/mL
Cc1ccn2c(C(=O)NCC3CCCO3)c(C)nc2c1 ; species: Mycobacterium ulcerans ; read by: fluorescence ; endpoint: MIC50 ; result: >10 µg/mL
O=C(NNC(=O)c1ccncc1)Nc1ccc(Cl)c(C(F)(F)F)c1 ; species: Mycobacterium kansasii ; strain: My 235/80 ; read by: broth dilution ; conditions: 21 d ; endpoint: MIC100 ; result: 125 µM
CC[C@H]1OC(=O)[C@H](C)[C@@H](O[C@H]2C[C@@](C)(OC)[C@@H](OC(C)=O)[C@H](C)O2)[C@H](C)[C@@H](O[C@@H]2O[C@H](C)C[C@H](N(C)C)[C@H]2O)C(C)(O)C[C@@H](C)/C(=N\OCCCc2ccccc2)[C@H](C)[C@@H](O)[C@]1(C)O ; species: Mycobacterium avium complex ; strain: 20096 (clarithromycin-resistant) ; endpoint: MIC ; result: 3.13 µg/mL
Cc1nc2ccc(Cl)cn2c1C(=O)NCc1ccc(N(C)C)cc1 ; species: Mycobacterium ulcerans ; read by: fluorescence ; endpoint: MIC50 ; result: 0.01–0.1 µg/mL
CCCCc1ccc(NC(=O)NNC(=O)c2ccncc2)cc1 ; species: Mycobacterium kansasii ; strain: My 235/80 ; read by: broth dilution ; conditions: 14 d ; endpoint: MIC100 ; result: 125 µM
CCCO/N=C1\[C@H](C)CC(C)(O)[C@H](O[C@@H]2O[C@H](C)C[C@H](N(C)C)[C@H]2O)[C@@H](C)[C@H](OC2C[C@@](C)(OC)[C@@H](O)[C@H](C)O2)[C@@H](C)C(=O)O[C@H](CC)[C@@](C)(O)[C@H](O)[C@H]1C ; species: Mycobacterium avium complex ; strain: 20039 (clarithromycin-susceptible) ; endpoint: MIC ; result: 1.56 µg/mL
O=C(NNC(=O)c1ccncc1)Nc1ccc(Br)cc1F ; species: Mycobacterium kansasii ; strain: My 235/80 ; read by: broth dilution ; conditions: 14 d ; endpoint: MIC100 ; result: >125 µM
CCOC(=O)C[C@H](NC(=O)Nc1ccc(Cl)cc1)C1O[C@@H]2OC(C)(C)O[C@@H]2[C@H]1OC ; species: Mycobacterium aurum ; endpoint: MIC ; result: >25 µg/mL
CO[C@@]1(NC(=O)CCCC(N)C(=O)O)C(=O)N2C(C(=O)O)=C(COC(N)=O)CSC21 ; species: Mycobacterium fortuitum ; strain: 1048 ; endpoint: MIC ; result: >100 µg/mL
O=C(NCCc1cc(F)cc2c1OCOC2)c1c(Cl)nc2ccccn12 ; species: Mycobacterium ulcerans ; read by: fluorescence ; endpoint: MIC50 ; result: 1–10 µg/mL
CC[C@H]1OC(=O)[C@H](C)[C@@H](OC2C[C@@](C)(OC)[C@@H](O)[C@H](C)O2)[C@H](C)[C@@H](O[C@@H]2O[C@H](C)C[C@H](N(C)C)[C@H]2O)C(C)(O)C[C@@H](C)/C(=N\OCCCCCc2ccccc2)[C@H](C)[C@@H](O)[C@]1(C)O ; species: Mycobacterium avium complex ; strain: 20092 (clarithromycin-resistant) ; endpoint: MIC ; result: 6.25 µg/mL
Cc1ccc(NC(=O)NNC(=O)c2ccncc2)cc1 ; species: Mycobacterium kansasii ; strain: My 6509/96 ; read by: broth dilution ; conditions: 21 d ; endpoint: MIC100 ; result: 125 µM
Nc1ccc(S(=O)(=O)c2ccc(N)cc2)cc1 ; species: Mycobacterium avium complex ; strain: DW16 ; endpoint: MIC ; result: 64 µg/mL
CO[C@@]1(NC(=O)Cn2cnnn2)C(=O)N2C(C(=O)O)=C(CSc3nnc(C)s3)CSC21 ; species: Mycobacterium fortuitum ; strain: 1048 ; endpoint: MIC ; result: 100 µg/mL
CC[C@H]1OC(=O)[C@H](C)[C@@H](O[C@H]2C[C@@](C)(OC)[C@@H](OC(C)=O)[C@H](C)O2)[C@H](C)[C@@H](O[C@@H]2O[C@H](C)C[C@H](N(C)C)[C@H]2O)C(C)(O)C[C@@H](C)/C(=N\OCCCCOc2ccccc2)[C@H](C)[C@@H](O)[C@]1(C)O ; species: Mycobacterium avium complex ; strain: 20039 (clarithromycin-susceptible) ; endpoint: MIC ; result: 1.56 µg/mL

Repeating the final 4 entries:

SMILES | species | strain | read by | conditions | endpoint | result
Cc1ccc(NC(=O)NNC(=O)c2ccncc2)cc1 | Mycobacterium kansasii | My 6509/96 | broth dilution | 21 d | MIC100 | 125 µM
Nc1ccc(S(=O)(=O)c2ccc(N)cc2)cc1 | Mycobacterium avium complex | DW16 | - | - | MIC | 64 µg/mL
CO[C@@]1(NC(=O)Cn2cnnn2)C(=O)N2C(C(=O)O)=C(CSc3nnc(C)s3)CSC21 | Mycobacterium fortuitum | 1048 | - | - | MIC | 100 µg/mL
CC[C@H]1OC(=O)[C@H](C)[C@@H](O[C@H]2C[C@@](C)(OC)[C@@H](OC(C)=O)[C@H](C)O2)[C@H](C)[C@@H](O[C@@H]2O[C@H](C)C[C@H](N(C)C)[C@H]2O)C(C)(O)C[C@@H](C)/C(=N\OCCCCOc2ccccc2)[C@H](C)[C@@H](O)[C@]1(C)O | Mycobacterium avium complex | 20039 (clarithromycin-susceptible) | - | - | MIC | 1.56 µg/mL